Reference: article PMC3810934 (Emerging Infectious Diseases, 2013)

Tests used:
[1] = target: Oseltamivir-sensitive A/Washington/01/2007 neuraminidase (Influenza A virus (H3N2), UniProt A7UPN3); conditions: conventional NI assay pH 6.5; H3N2 reference virus A/Washington/01/2007
[2] = target: A/Anhui/1/2013 (E2/S1) virus isolate neuraminidase (Influenza A virus (A/Anhui/1/2013(H7N9)), UniProt A0A024E3Q2); conditions: conventional NI assay pH 6.5; virus isolate A/Anhui/1/2013 (E2/S1)
[3] = target: Oseltamivir-sensitive A/California/12/2012 neuraminidase (Influenza A virus (H1N1pdm09), UniProt R4SI91); conditions: conventional NI assay pH 6.5; H1N1 reference virus A/California/12/2012

Row | Substance | Fold change in IC50 compared with drug-sensitive subtype-specific control [1] | Fold change in IC50 compared with drug-sensitive subtype-specific control [2] | Fold change in IC50 compared with drug-sensitive subtype-specific control [3]
1 | oseltamivir carboxylate | 1 -fold | – | –
2 | peramivir | – | 1 -fold | 1 -fold
